Compound potency records, mixed from different reports. Data source: NIAID ChemDB in PubChem.

All rows: growth or infection tests; organism: Epstein-Barr virus

Inhibition is in % at the dose shown (toxicity tests: loss of growth or viability). Blank or dashed fields: not listed here. ECn is the concentration giving n% inhibition of infection, replication or growth. Lines come from different laboratories, so protocols vary.

structure | cells | read by | endpoint | tested at | result
Nc1nc2c(ncn2COC(CO)CO)c(=O)[nH]1 | H-1 | - | EC90 | - | 5 µM
Oc1ccc(/C=C/c2cc(O)cc(O)c2)cc1 | - | antigen | inhibition | 27 µM | 42%
Nc1nc2c(ncn2[C@@H]2C[C@H](O)[C@@H](O)[C@H]2O)c(=O)[nH]1 | DAUDI | ELISA | EC50 | - | 0.78 µg/mL
CC(C)Sc1nc(N)nc2c1ncn2/C=C1/C[C@@H]1CO | Akata | hybridisation | EC50 | - | 0.8 µM
Nc1nc2c(ncn2COCCO)c(=O)[nH]1 | P3HR-1 | cytopathic effect | EC50 | - | 0.3 µM
CC(=O)N[C@H]1C[C@@H](n2cnc3c(N)ncnc32)[C@H](O)[C@@H]1O | HFF | - | EC50 | - | >100 µg/mL
Nc1nc2c(ncn2COCCO)c(=O)[nH]1 | H-1 | - | EC50 | - | 50 µM
C=CCOc1nc(N)nc2c1ncn2/C=C1/C[C@@H]1CO | Akata | hybridisation | EC50 | - | 1 µM
Nc1ncnc2c1ncn2C[C@@H](CO)OCP(=O)(O)O | - | - | MIC | - | 0.03 µg/mL
COc1nc(N)nc2c1ncn2/C=C1/C[C@@H]1CO | Akata | hybridisation | EC50 | - | 0.3 µM
Nc1nc2ncn(/C=C3/C(F)C3(CO)CO)c2c(=O)[nH]1 | Akata | hybridisation | EC50 | - | >100 µM
CCCCCCOc1nc(N)nc2c1ncn2/C=C1/C[C@@H]1CO | Akata | hybridisation | EC50 | - | 1.3 µM
Nc1ccn(C[C@@H](CO)OCP(=O)(O)O)c(=O)n1 | - | - | MIC | - | 0.01 µg/mL
CC(C)CSc1nc(N)nc2c1ncn2/C=C1/C[C@@H]1CO | Akata | hybridisation | EC50 | - | 0.6 µM
O=c1[nH]c(=O)n([C@@H]2CO[C@H](CO)O2)cc1Cl | H-1 | - | EC50 | - | 0.6 µM

For reference, 2 entries again:

{"structure": "CC(C)Sc1nc(N)nc2c1ncn2/C=C1/C[C@@H]1CO", "cells": "Akata", "read by": "hybridisation", "endpoint": "EC50", "result": "0.8 µM"}
{"structure": "Nc1nc2c(ncn2COCCO)c(=O)[nH]1", "cells": "H-1", "endpoint": "EC50", "result": "50 µM"}